Results of unrelated studies side by side (data: NIAID ChemDB).

Common to all: whole-cell or culture tests; agent: HIV-1; measure: inhibition

Percent inhibition refers to the dose given; in toxicity tests it is the harm to the cells. An empty or dashed field is not shown. Lines come from different laboratories, so protocols vary.

SMILES	cells	method	conditions	tested at	strain or isolate	mutations	result
Nc1ccn([C@H]2C=C[C@@H](CO)[C@H](CO)S2)c(=O)n1	PBMC	p24 / antigen	-	0.1 µM	-	-	10%
CC(C)(C)OC(=O)N[C@@H](Cc1ccccc1)[C@@H](O)[C@@H](NCc1ccc(CNC(=O)OCc2ccccc2)cc1)C(=O)N[C@H]1c2ccccc2C[C@H]1O	MT-4	cytopathic effect / MTT	-	3 µM	IIIB	-	0%
O=c1[nH]cnc2c1ncn2[C@H]1CC[C@@H](CO)O1	MT-4	p24	-	10 µM	IIIB	-	63%
COc1cc2c3cc1Oc1c(O)c(OC)cc4c1C(Cc1ccc(cc1)Oc1cc(ccc1O)CC3N(C)CC2)N(C)CC4	MT-4	cytopathic effect / visual reading	-	31.3 µg/mL	IIIB	-	100%
OC[C@H]1NC[C@H](O)[C@@H](O)[C@@H]1O	MOLT-4	cell fusion	-	320 µg/mL	IIIB	-	87%
Cc1cn([C@H]2C[C@H](N=[N+]=[N-])[C@@H](CO)O2)c(=O)[nH]c1=O	PBL(PHA STIM.) + PBL	p24 / ELISA	-	5 µM	CD 451	-	100%
Cc1cc(=O)c2ccc(N=C=S)cc2o1	CEM-GFP	MTT	-	1 µM	NL4-3	-	93.87%
CC(C)[C@@H](C)/C=C/[C@@H](C)[C@H]1CCC2[C@@]34C=C[C@]5(C[C@@H](O)CC[C@]5(C)C3CC[C@@]21C)OO4	MT-4	cytopathic effect / microscopy	-	15.6 µM	-	-	0%
CC(N=C=S)c1ccccc1	CEM-CCR5	MTT	-	0.5 µM	NL4-3	-	43.81%
O=C1N(Cc2ccc(CO)cc2)[C@H](Cc2ccccc2)[C@H](O)[C@@H](O)[C@@H](Cc2ccccc2)N1Cc1ccc(CO)cc1	MT-2	virus yield	-	0.11 µM	IIIB	-	90%
CC(C)=CCOc1c2occc2cc2ccc(=O)oc12	HeLa	luciferase	-	50 µM	NL4-3 Recombinant VSV-pseudotyped	-	87.5%
CC(C)C[C@H](NC(=O)[C@H](Cc1ccccc1)NC(=O)CNC(=O)CNC(=O)[C@@H](N)Cc1ccc(O)cc1)C(=O)OC[C@@H](O)[C@@H](O)[C@H](O)[C@@H](O)C=O	PBL	syncytia / RT activity	-	100 µM	-	-	28%
COc1cc(C[C@H](C)[C@H](C)Cc2ccc(O)c(O)c2)ccc1O	PBMC	p24	-	10 µg/mL	MN	-	80%
COC(=O)[C@@H]1C2CCC(C[C@@H]1OC(=O)c1ccccc1)N2C	U1	p24	-	25 µg/mL	IIIB	-	<0%
O=C(O)P(=O)(O)O	PBL	-	14 d	128 µM	IIIB	-	0%
O=C(OC[C@H]1O[C@@H](OC(=O)c2cc(O)c(O)c(O)c2)[C@H](O)[C@@H](OC(=O)c2cc(O)c(O)c(O)c2)[C@@H]1O)c1cc(O)c(O)c(O)c1	MOLT-3	p24	-	33 µg/mL	IIIB	-	79%
OC[C@@H]1[C@@H](O)[C@H](O)[C@@H]2[C@@H](O)CCN21	JM	syncytia	-	1000 µM	GB8	-	13%
NCCSSCCN	CEM	cytopathic effect / MTT	-	100 µM	IIIB	-	100%
CC(C)C[C@H](NC(=O)[C@H](Cc1ccccc1)NC(=O)CNC(=O)CNC(=O)[C@@H](N)Cc1ccc(O)cc1)C(=O)OC[C@H]1O[C@@H](OCc2ccccc2)[C@H](O)[C@@H](O)[C@@H]1O	PBL	syncytia / RT activity	-	100 µM	-	-	15%
CN=C1CN=C(c2ccc[nH]2)c2cc(Cl)ccc2N1	Jurkat cells	antigen	-	1 µM	N1T	-	90%
Cc1cn([C@H]2C[C@H](F)[C@@H](CO)O2)c(=O)[nH]c1=O	MT-4	p24 / ELISA	-	0.021 µM	IIIB	-	95%
CC(=O)N[C@@H](CS)C(=O)O	CEM	cytopathic effect / MTT	-	100 µM	IIIB	-	6%
CC1=C(C(=O)Nc2ccc(Cl)c(C(=O)OC(C)C)c2)SCCO1	CEM + CEM-SS	XTT	-	2 µM	RF	-	67%
Cc1cn([C@H]2CC[C@@H](CO)O2)c(=O)[nH]c1=O	ATH8	cytopathic effect / trypan blue	-	100 µM	IIIB	-	68%
COC(=O)C(Cc1ccc(O)cc1)N=C=S	CEM-GFP	MTT	-	1 µg/mL	NL4-3	-	55.37%
COc1c(C)c2c(c(O)c1C/C=C(\C)CCC(=O)O)C(=O)OC2	PBMC	p24	-	1 µM	NL4-3	-	25%
C=C/C=C(\C=C/Cc1c2nc(c(-c3ccc(S(=O)(=O)NCCN(CC)CC)cc3)c3ccc([n-]3)c(C/C=C\C(=C/C=C)S(=O)(=O)NCCN(CC)CC)c3ccc([n-]3)c(-c3ccc(S(=O)(=O)NCCN(CC)CC)cc3)c3nc1C=C3)C=C2)S(=O)(=O)NCCN(CC)CC.[O]=[V+2]	HUT/CCR5 + HUT	p24	7 d	5 µM	BaL	-	97%
CC[C@H](C)C(=O)O[C@@H]1C(=O)[C@@]2(OC(=O)C(C)C)[C@@]3(O)C[C@@]1(C)[C@H](CC(=O)OC)[C@@]3(C)[C@H]1CC[C@@]3(C)[C@H](c4ccoc4)OC(=O)C[C@]34O[C@]142	SupT1	luciferase	pseudotyped	20 µM	-	-	79.75%
CC(C)C[C@@H]1[C@H](O)[C@@H](O)[C@@H](CC(C)C)N(Cc2cccc(C(=O)Nc3nc4ccccc4[nH]3)c2)C(=O)N1Cc1cccc(C(=O)Nc2nc3ccccc3[nH]2)c1	MT-2	-	3 d	0.012 µM	RF	PR-I84V V82F	90%
CC(C)(C)OC(=O)N[C@@H](Cc1ccccc1)[C@@H](O)[C@@H](NCc1ccc(OCCO)cc1)C(=O)NCc1ccccc1	MT-4	cytopathic effect / MTT	-	3 µM	IIIB	-	0%
OCCS	CEM	cytopathic effect / MTT	-	100 µM	IIIB	-	0%
CC(=O)OC1C(=O)C2=C(C(=O)CC3C(C)(C)[C@@H](O)CC[C@]23C)[C@]2(C)[C@H](O)C[C@H]([C@H](C)CC(=O)CC(C)C(=O)O)[C@@]12C	MT-4	cytopathic effect / microscopy	-	1000 µM	-	-	0%
COC(=O)C(C)N=C=S	CEM-GFP	MTT	-	1 µM	NL4-3	-	61.67%
NC(=O)c1ncn([C@@H]2O[C@H](CO)[C@@H](O)[C@H]2O)n1	TZM-bl	luciferase	-	200 µg/mL	BaL	-	>75%
CNC(=O)c1cc(F)ccc1CNC(=O)c1nc(N2CCCCS2(=O)=O)c2cccnc2c1O	MT-4	p24	-	0.015 µM	IIIB	-	95%
CC1(C)[C@@H](O[C@H]2O[C@H](C(=O)O)[C@@H](O)[C@H](O)[C@H]2O[C@@H]2O[C@H](C(=O)O)[C@@H](O)[C@H](O)[C@H]2O)CC[C@]2(C)[C@H]3C(=O)C=C4[C@@H]5C[C@@](C)(C(=O)O)CC[C@]5(C)CC[C@@]4(C)[C@]3(C)CC[C@@H]12	MT-4	-	-	500 µg/mL	-	-	18.2%
N#CC[C@H](C1CCCC1)n1cc(-c2ncnc3[nH]ccc23)cn1	Macrophage	p24 / ELISA	-	3.1 µM	BaL	-	90%
CC(C)C[C@H](NC(=O)[C@H](Cc1ccccc1)NC(=O)CNC(=O)CNC(=O)[C@@H](N)Cc1ccc(O)cc1)C(=O)NC[C@H]1OC(O)[C@H](O)[C@@H](O)[C@@H]1O	PBL	syncytia / RT activity	-	100 µM	-	-	16%
O=C(O)P(=O)(O)O	H9	p24 / antigen	4 d	150 µM	IIIB	-	88%
Cc1cn([C@H]2C[C@H](N=[N+]=[N-])[C@@H](CO)O2)c(=O)[nH]c1=O	U87 (CD4+ CCR5+) + U87	luciferase	-	0.2 µg/mL	CONB/pNL43E-Luc+	-	100%
COc1ccc(CN[C@@H](C(=O)N[C@H]2c3ccccc3C[C@H]2O)[C@H](O)[C@H](Cc2ccccc2)NC(=O)OC(C)(C)C)cc1	MT-4	cytopathic effect / MTT	-	3 µM	IIIB	-	0%
CC(=O)O[C@@H]1O[C@H](COC(=O)[C@H](CC(C)C)NC(=O)[C@H](Cc2ccccc2)NC(=O)CNC(=O)CNC(=O)[C@@H](N)Cc2ccc(O)cc2)[C@@H](OC(C)=O)[C@H](OC(C)=O)[C@H]1OC(C)=O	PBL	syncytia / RT activity	-	100 µM	-	-	21%
CCc1cc(NCc2nc3c(Cl)ccc(Cl)c3o2)c(=O)[nH]c1C	MT-4	p24	-	0.05 µM	RF	-	95%
Nc1nc2c(ncn2C/C=C\CO)c(=O)[nH]1	ATH8	cytopathic effect / trypan blue	-	1000 µM	IIIB	-	4%
CSc1c(C)c(SC)n2ccncc12	H9	MTT / p24	-	60 µM	IIIB	-	85%
COc1ccccc1-c1noc(=O)n1-c1cccc(C(F)(F)F)c1	MDM	p24	-	1 µM	NLHXADA R5 recombinant wild type	-	90%
Nc1ncnc2c1ncn2[C@H]1CC[C@@H](CO)O1	ATH8	cytopathic effect / trypan blue	-	100 µM	IIIB	-	90%
CC(C)[C@@H](C)/C=C/[C@@H](C)[C@H]1CC[C@H]2C3=CC=C4C[C@@H](O)CC[C@]4(C)[C@H]3CC[C@]12C	MT-4	cytopathic effect / microscopy	-	1000 µM	-	-	0%
C=C(CC[C@@H](C)[C@H]1CC=C2C3=C([C@@H](O)[C@H](OC(C)=O)[C@@]21C)[C@@]1(C)C[C@@H](O)[C@H](OS(=O)(=O)O)C(C)(C)[C@@H]1CC3)C(C)C	-	-	-	25 µM	-	-	95%
Cc1cn([C@H]2C[C@H](N=[N+]=[N-])[C@@H](CO)O2)c(=O)[nH]c1=O	HUT/CCR5 + HUT	p24	3 d	0.5 µM	BaL	-	97%
CCCCCCCCCCCCCC(=O)O[C@@H]1[C@@H](C)[C@@]2(O)[C@@H](C=C(CO)C[C@]3(O)C(=O)C(C)=C[C@@H]23)[C@@H]2C(C)(C)[C@]12OC(C)=O	CD4.401/H9(HIV-1 MN) + CD4	syncytia	-	0.005 µg/mL	MN	-	79%
Cc1cn([C@H]2C[C@H](N=[N+]=[N-])[C@@H](CO)O2)c(=O)[nH]c1=O	PBMC	p24	-	0.125 µM	RF	-	100%
Cc1cc2c(C(C)C)c(O)c(O)c(C=O)c2c(O)c1-c1c(C)cc2c(C(C)C)c(O)c(O)c(C=O)c2c1O	MT-4	p24 / ELISA	-	10 µg/mL	IIIB	-	100%
O=C(Nc1ncc[nH]1)c1cccc(CN2C(=O)N(Cc3cccc(C(=O)Nc4ncc[nH]4)c3)[C@H](Cc3ccccc3)[C@H](O)[C@@H](O)[C@H]2Cc2ccccc2)c1	MT-2	p24	-	0.0019 µM	RF	-	90%
Nc1nc2c(ncn2[C@H]2CC[C@@H](CO)O2)c(=O)[nH]1	ATH8	cytopathic effect / trypan blue	-	100 µM	IIIB	-	99%
C[C@H](CC[C@H](O)C(C)(O)CO)[C@H]1CC[C@@]2(C)C3=CC[C@H]4C(C)(C)C(=O)CC[C@]4(C)C3=CC[C@]12C	MT-4	cytopathic effect / microscopy	-	7.8 µM	-	-	100%
Nc1ncnc2c1ncn2C/C=C\CO	ATH8	cytopathic effect / trypan blue	-	500 µM	IIIB	-	0%
CCOc1ccc(CN[C@@H](C(=O)N[C@H]2c3ccccc3C[C@H]2O)[C@H](O)[C@H](Cc2ccccc2)NC(=O)OC(C)(C)C)cc1	MT-4	cytopathic effect / MTT	-	3 µM	IIIB	-	0%

A second listing of 5 rows from above:

SMILES | cells | method | conditions | tested at | strain or isolate | mutations | result
COc1c(C)c2c(c(O)c1C/C=C(\C)CCC(=O)O)C(=O)OC2 | PBMC | p24 | - | 1 µM | NL4-3 | - | 25%
CCc1cc(NCc2nc3c(Cl)ccc(Cl)c3o2)c(=O)[nH]c1C | MT-4 | p24 | - | 0.05 µM | RF | - | 95%
CCOc1ccc(CN[C@@H](C(=O)N[C@H]2c3ccccc3C[C@H]2O)[C@H](O)[C@H](Cc2ccccc2)NC(=O)OC(C)(C)C)cc1 | MT-4 | cytopathic effect / MTT | - | 3 µM | IIIB | - | 0%
N#CC[C@H](C1CCCC1)n1cc(-c2ncnc3[nH]ccc23)cn1 | Macrophage | p24 / ELISA | - | 3.1 µM | BaL | - | 90%
CC(C)(C)OC(=O)N[C@@H](Cc1ccccc1)[C@@H](O)[C@@H](NCc1ccc(OCCO)cc1)C(=O)NCc1ccccc1 | MT-4 | cytopathic effect / MTT | - | 3 µM | IIIB | - | 0%